Results of unrelated studies side by side (data: NIAID ChemDB).

Shared fields: whole-cell or culture tests; species: Herpes simplex virus 1; read-out: EC50

Neighbouring rows are from separate reports. Blank or dashed fields: not listed here. a–b is a range or a potency band. ECn: concentration that inhibits the pathogen or its effect by n%.

compound,strain or isolate,method,conditions,result
O=C(NS(=O)(=O)OCCOCn1ccc(=O)[nH]c1=O)O[C@H]1O[C@H](COCc2ccccc2)[C@@H](OCc2ccccc2)[C@H](OCc2ccccc2)[C@H]1OCc1ccccc1,,cytopathic effect,,30 µM
Nc1cc(OC[C@H](CO)OCP(=O)(O)O)nc(N)n1,KOS,cytopathic effect,,14 µM
COC(=O)OP(=O)(CO[C@H](CO)Cn1cnc(N)nc1=O)OC(=O)OC,KOS,cytopathic effect,,0.076 µg/mL
CC(=O)O[C@H]1C[C@H](n2ccc(=O)[nH]c2=O)O[C@@H]1COS(=O)(=O)NC(=O)O[C@H]1O[C@H](COC(=O)c2ccccc2)[C@@H](OC(=O)c2ccccc2)[C@H](OC(=O)c2ccccc2)[C@H]1OC(=O)c1ccccc1,,cytopathic effect,,30 µM
C[C@H]1O[C@@H](n2cc(C(N)=S)c3c(N)ncnc32)[C@H](O)[C@@H]1O,,ELISA,,2.5 µM
C[C@@]1(CO)[C@H](O)CC[C@@]2(C)[C@H]1CC[C@H]1C[C@@H]3C[C@@]12CC[C@]3(O)CO,,plaque count,,1.2 µM
Nc1ncnc2c1ncn2CCOCP(=O)(O)O,KOS,cytopathic effect,,26 µM
Nc1nc2c(ncn2C=C2CC2CO)c(=O)[nH]1,,plaque count,,10–100 µM
C[C@@]1(O)[C@H](O)CC[C@@]2(C)[C@H]1CC[C@H]1C[C@@H]3CC12CC[C@]3(O)CSCc1ccccc1,,plaque count,,>500 µM
Nc1nc2c(ncn2[C@@H]2C=C[C@H](CO)CC2)c(=O)[nH]1,OST (TK-),,,3.2 µg/mL
C[C@H](Cc1ccc2c(c1)OCO2)[C@@H](C)Cc1ccc2c(c1)OCO2,1,,,111.1 µg/mL
C[C@H](Cn1cnc2c(NC3CC3)ncnc21)OCP(=O)(O)O,,,,0.2 µg/mL
Nc1nc2c(ncn2CCC(CO)CO)c(=O)[nH]1,,,,0.1–1 µM
Cc1ccc(S(=O)(=O)OC[C@@]2(O)CCC34C[C@H]2C[C@@H]3CC[C@H]2[C@](C)(CO)[C@H](O)CC[C@@]24C)cc1,,plaque count,,0.7 µM
O=C(O)P(=O)(O)O,F,plaque count,,52 µM
OC[C@H]1O[C@@H](n2c(Cl)nc3cc(Cl)c(Cl)cc32)[C@@H](F)[C@@H]1O,,,,50 µM
O=c1[nH]c(=O)n([C@H]2C[C@H](O)[C@@H](CO)O2)cc1I,,plaque count,,5 µM
Nc1nc2c(ncn2C[C@]2(CO)C[C@H]2CO)c(=O)[nH]1,,,,0.01–0.1 µM
Nc1ncnc2c1ncn2CCOCP(=O)(O)O,,,inside macrophages,0.0128–0.064 µM
O=C(O)P(=O)(O)O,C137-101 (TK-),cytopathic effect,,52 µg/mL
O=C(O)C(F)P(=O)(O)O,F,plaque count,,130 µM
CO[C@@H]1[C@H](OP(O)(=S)OC[C@H]2O[C@@H](n3cnc4c(N)ncnc43)C[C@@H]2O)[C@@H](CO)O[C@H]1n1ccc(=O)[nH]c1=O,KOS,,,>20 µM
C[C@H](COc1cc(N)nc(N)n1)OCP(=O)(O)O,KOS,cytopathic effect,,58 µM

2 of the rows above, restated:

compound	strain or isolate	method	conditions	result
CO[C@@H]1[C@H](OP(O)(=S)OC[C@H]2O[C@@H](n3cnc4c(N)ncnc43)C[C@@H]2O)[C@@H](CO)O[C@H]1n1ccc(=O)[nH]c1=O	KOS			>20 µM
C[C@H](Cn1cnc2c(NC3CC3)ncnc21)OCP(=O)(O)O				0.2 µg/mL